{"source": "PubChem BioAssay AID1259414 (Drosophila RNAi Screening Center, 2018)", "test": "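Genome-wide screen for host control of endosymbiont load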 (primary screen)", "system": "Drosophila JW18 cells infected with Wolbachia", "reagent": "long dsRNA against Drosophila genes, 0.25 µg dsRNA per well of a 384-well plate", "duration": "5 days", "challenge": "cells persistently infected with Wolbachia before knock-down; no added drug", "measured": "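Imaged fluorescence in situ signal for Wolbachia 23S rRNA per DAPI-counted host cell, given as a robust z-score within each plate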", "direction": "Wolbachia per cell robust z: higher = more Wolbachia per host cell than the plate typical", "active means": "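Hit when robust z is 1.5 or more, or -1.5 or less, in at least two of three replicates; excludes dsRNAs with several or no targets, genes not expressed in JW18 and well A1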", "note": "In all, the deposit lists about 24,000 reagents; below is an unselected part of those that have a named target and a result. In the full data, about 1,210 (5%) are marked active. 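Inactive calls also include excluded dsRNAs with several or no targets, genes unexpressed in JW18, and well A1, regardless of score.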 The numbers tell different reagents against one gene apart. Names joined by + are all predicted targets of the reagent. Reagent sequences are not shown."}
{"predicted target": "Cont", "reagent": 1, "Wolbachia per cell robust z, rep 1": -0.178, "Wolbachia per cell robust z, rep 2": 1.08, "Wolbachia per cell robust z, rep 3": -0.361, "call": "inactive"}
{"predicted target": "CG6184", "reagent": 1, "Wolbachia per cell robust z, rep 1": -3.83, "Wolbachia per cell robust z, rep 2": -4.58, "Wolbachia per cell robust z, rep 3": 0.554, "call": "inactive"}
{"predicted target": "CG17560", "reagent": 1, "Wolbachia per cell robust z, rep 1": -0.561, "Wolbachia per cell robust z, rep 2": 0.128, "Wolbachia per cell robust z, rep 3": 0.359, "call": "inactive"}
{"predicted target": "CG13631", "reagent": 1, "Wolbachia per cell robust z, rep 1": -0.602, "Wolbachia per cell robust z, rep 2": -3.3, "Wolbachia per cell robust z, rep 3": -13.7, "call": "inactive"}
{"predicted target": "CG13631", "reagent": 2, "Wolbachia per cell robust z, rep 1": 0.565, "Wolbachia per cell robust z, rep 2": -0.222, "Wolbachia per cell robust z, rep 3": -0.0716, "call": "inactive"}
{"predicted target": "CG34171", "reagent": 1, "Wolbachia per cell robust z, rep 1": -1.77, "Wolbachia per cell robust z, rep 2": -0.0249, "Wolbachia per cell robust z, rep 3": -0.439, "call": "inactive"}
{"predicted target": "Naglu", "reagent": 1, "Wolbachia per cell robust z, rep 1": 0.0148, "Wolbachia per cell robust z, rep 2": -0.157, "Wolbachia per cell robust z, rep 3": -1.02, "call": "inactive"}
{"predicted target": "rec", "reagent": 1, "Wolbachia per cell robust z, rep 1": 0.276, "Wolbachia per cell robust z, rep 2": 1.18, "Wolbachia per cell robust z, rep 3": 2.08, "call": "inactive"}
{"predicted target": "rec", "reagent": 2, "Wolbachia per cell robust z, rep 1": -0.586, "Wolbachia per cell robust z, rep 2": 0.952, "Wolbachia per cell robust z, rep 3": 0.434, "call": "inactive"}
{"predicted target": "LpR1", "reagent": 1, "Wolbachia per cell robust z, rep 1": 0.181, "Wolbachia per cell robust z, rep 2": 0.781, "Wolbachia per cell robust z, rep 3": 0.915, "call": "inactive"}
{"predicted target": "LpR1", "reagent": 2, "Wolbachia per cell robust z, rep 1": 0.943, "Wolbachia per cell robust z, rep 2": 0.0142, "Wolbachia per cell robust z, rep 3": 0.359, "call": "inactive"}
{"predicted target": "LpR1", "reagent": 3, "Wolbachia per cell robust z, rep 1": 0.16, "Wolbachia per cell robust z, rep 2": -1.73, "Wolbachia per cell robust z, rep 3": -0.308, "call": "inactive"}
{"predicted target": "LpR1", "reagent": 4, "Wolbachia per cell robust z, rep 1": 1.03, "Wolbachia per cell robust z, rep 2": -0.941, "Wolbachia per cell robust z, rep 3": -1.63, "call": "inactive"}
{"predicted target": "alpha-Spec", "reagent": 1, "Wolbachia per cell robust z, rep 1": -0.127, "Wolbachia per cell robust z, rep 2": -1.03, "Wolbachia per cell robust z, rep 3": -1.21, "call": "inactive"}
{"predicted target": "alpha-Spec", "reagent": 2, "Wolbachia per cell robust z, rep 1": -2.03, "Wolbachia per cell robust z, rep 2": -1.16, "Wolbachia per cell robust z, rep 3": -1.65, "call": "active"}
{"predicted target": "CG13744", "reagent": 1, "Wolbachia per cell robust z, rep 1": 0.222, "Wolbachia per cell robust z, rep 2": 0.921, "Wolbachia per cell robust z, rep 3": 0.151, "call": "inactive"}
{"predicted target": "Sfp70A4", "reagent": 1, "Wolbachia per cell robust z, rep 1": 1.13, "Wolbachia per cell robust z, rep 2": 1.13, "Wolbachia per cell robust z, rep 3": -1.37, "call": "inactive"}
{"predicted target": "CG4806", "reagent": 1, "Wolbachia per cell robust z, rep 1": 0.486, "Wolbachia per cell robust z, rep 2": 0.00753, "Wolbachia per cell robust z, rep 3": 0.0415, "call": "inactive"}
{"predicted target": "Obp57b + Obp57c", "reagent": 1, "Wolbachia per cell robust z, rep 1": -0.329, "Wolbachia per cell robust z, rep 2": 1.08, "Wolbachia per cell robust z, rep 3": 0.0121, "call": "inactive"}
{"predicted target": "FASN1", "reagent": 1, "Wolbachia per cell robust z, rep 1": 2.38, "Wolbachia per cell robust z, rep 2": 1.09, "Wolbachia per cell robust z, rep 3": 5.93, "call": "active"}
{"predicted target": "FASN1", "reagent": 2, "Wolbachia per cell robust z, rep 1": 1.55, "Wolbachia per cell robust z, rep 2": 2.58, "Wolbachia per cell robust z, rep 3": 2.14, "call": "active"}
{"predicted target": "snoRNA:Me18S-G1620 + snoRNA:U14:30Ea + Uhg2", "reagent": 1, "Wolbachia per cell robust z, rep 1": -0.294, "Wolbachia per cell robust z, rep 2": -0.668, "Wolbachia per cell robust z, rep 3": -0.272, "call": "inactive"}
{"predicted target": "pygo", "reagent": 1, "Wolbachia per cell robust z, rep 1": 1.15, "Wolbachia per cell robust z, rep 2": 1.91, "Wolbachia per cell robust z, rep 3": 0.645, "call": "inactive"}
{"predicted target": "pygo", "reagent": 2, "Wolbachia per cell robust z, rep 1": -0.186, "Wolbachia per cell robust z, rep 2": -0.508, "Wolbachia per cell robust z, rep 3": -0.8, "call": "inactive"}
{"predicted target": "CG10341", "reagent": 1, "Wolbachia per cell robust z, rep 1": 0.365, "Wolbachia per cell robust z, rep 2": 1.05, "Wolbachia per cell robust z, rep 3": -0.364, "call": "inactive"}
{"predicted target": "CG18302", "reagent": 1, "Wolbachia per cell robust z, rep 1": -4.77, "Wolbachia per cell robust z, rep 2": 0.143, "Wolbachia per cell robust z, rep 3": -1.6, "call": "inactive"}
{"predicted target": "CG18302", "reagent": 2, "Wolbachia per cell robust z, rep 1": -0.433, "Wolbachia per cell robust z, rep 2": -7.03, "Wolbachia per cell robust z, rep 3": 1.36, "call": "inactive"}
{"predicted target": "Pxd", "reagent": 1, "Wolbachia per cell robust z, rep 1": 0.969, "Wolbachia per cell robust z, rep 2": 0.696, "Wolbachia per cell robust z, rep 3": -4.16, "call": "inactive"}
{"predicted target": "CG17195", "reagent": 1, "Wolbachia per cell robust z, rep 1": 1.12, "Wolbachia per cell robust z, rep 2": 0.523, "Wolbachia per cell robust z, rep 3": -5.12, "call": "inactive"}
{"predicted target": "CG17195", "reagent": 2, "Wolbachia per cell robust z, rep 1": 0.22, "Wolbachia per cell robust z, rep 2": -0.143, "Wolbachia per cell robust z, rep 3": -1.28, "call": "inactive"}

In a second layout: 4 of the entries above
{"predicted target":"Obp57b + Obp57c","reagent":1,"Wolbachia per cell robust z, rep 1":-0.329,"Wolbachia per cell robust z, rep 2":1.08,"Wolbachia per cell robust z, rep 3":0.0121,"call":"inactive"}
{"predicted target":"FASN1","reagent":1,"Wolbachia per cell robust z, rep 1":2.38,"Wolbachia per cell robust z, rep 2":1.09,"Wolbachia per cell robust z, rep 3":5.93,"call":"active"}
{"predicted target":"FASN1","reagent":2,"Wolbachia per cell robust z, rep 1":1.55,"Wolbachia per cell robust z, rep 2":2.58,"Wolbachia per cell robust z, rep 3":2.14,"call":"active"}
{"predicted target":"snoRNA:Me18S-G1620 + snoRNA:U14:30Ea + Uhg2","reagent":1,"Wolbachia per cell robust z, rep 1":-0.294,"Wolbachia per cell robust z, rep 2":-0.668,"Wolbachia per cell robust z, rep 3":-0.272,"call":"inactive"}
